Anti-infective test results gathered from many reports (values: NIAID ChemDB through PubChem).

Shared fields: tests in culture; species: Herpes simplex virus 1; cells: HEP-2; endpoint: EC50

ECn: concentration that inhibits the pathogen or its effect by n%. Rows are shuffled and stem from different studies.

CCc1cn([C@H]2C[C@H](O)[C@@H](COP(=O)(O)O)O2)c(=O)[nH]c1=O ; strain: KOS ; read by: cytopathic effect ; value: 0.4 µg/mL
Nc1ccn([C@@H]2O[C@H](CO)[C@@H](O)[C@@H]2O)c(=O)n1 ; strain: KOS ; read by: cytopathic effect ; value: 0.2 µg/mL
NC(N)=N/N=C1/C/C(=N\N=C(N)N)c2cc3ccccc3cc21 ; strain: 13 (S11) ; read by: virus yield ; value: 5 µM
Nc1nc(=O)n([C@H]2C[C@H](O)[C@@H](CO)O2)cc1/C=C/Br ; read by: plaque count ; value: 1.2 µM
O=c1[nH]c(=O)n([C@@H]2O[C@H](CO)[C@@H](O)[C@@H]2F)cc1I ; read by: cytopathic effect ; value: <0.01 µg/mL
NC(N)NN=c1/c(=N\NC(N)N)c2ccccc2/c1=N\NC(N)N ; strain: MP ; read by: plaque count ; value: 20 µM
Nc1nc2c(nnn2[C@@H]2C[C@H](CO)[C@@H](O)[C@H]2O)c(=O)[nH]1 ; strain: HF ; read by: cytopathic effect ; value: 81 µg/mL
O=c1[nH]c(=O)n([C@H]2C[C@H](O)[C@@H](CO)O2)cc1I ; read by: cytopathic effect ; value: <0.3 µg/mL
Nc1ncnc2c1ncn2[C@H]1[C@H](O)[C@H](F)[C@@H](CO)[C@@H]1O ; strain: F ; read by: cytopathic effect ; value: 90 µM
Nc1ncnc2c1ncn2[C@@H]1C[C@H](CO)[C@@H](O)[C@@H]1O ; strain: Lederle chorioallantoic ; read by: cytopathic effect ; value: 9 µg/mL
Nc1nc(=O)n([C@@H]2O[C@H](CO)[C@@H](O)[C@@H]2F)cc1I ; read by: cytopathic effect ; value: <0.01 µg/mL
O=C(NNCc1cccc(O)c1O)c1ccccc1O ; strain: KOS ; read by: PCR ; value: 1.1 µM
O=c1[nH]c(=O)n([C@@H]2O[C@H](CO)[C@@H](O)[C@@H]2O)cc1/C=C/Br ; strain: KOS ; read by: cytopathic effect ; value: 0.1 µg/mL
Cc1cc2c(c3ccccc13)C(=N\NC(N)N)/C(=N/NC(N)N)C2 ; strain: MP ; read by: plaque count ; value: 10 µM
O=c1[nH]c(=O)n([C@@H]2O[C@H](CO)[C@@H](O)[C@H]2O)cc1/C=C/Br ; strain: KOS ; read by: cytopathic effect ; value: 150 µg/mL
CCCc1cn([C@H]2C[C@H](O)[C@@H](CO)O2)c(=O)[nH]c1=O ; strain: KOS ; read by: cytopathic effect ; value: 0.15 µg/mL
Nc1ncnc2c1ncn2[C@@H]1O[C@H](CO)[C@@H](O)[C@@H]1O ; strain: KOS ; read by: cytopathic effect ; value: 100 µg/mL

A second listing of 2 rows from above:

compound	strain	read by	value
Cc1cc2c(c3ccccc13)C(=N\NC(N)N)/C(=N/NC(N)N)C2	MP	plaque count	10 µM
Nc1nc2c(nnn2[C@@H]2C[C@H](CO)[C@@H](O)[C@H]2O)c(=O)[nH]1	HF	cytopathic effect	81 µg/mL